# Experimental data from PMC9784969, “SARS-CoV-2 Inhibitors Identified by Phenotypic Analysis of a Collection of Viral RNA-Binding Molecules” (Pharmaceuticals, 2022).
# Tests used:
# Vero E6 cells = details: African green monkey
# 293T-ACE2 cells = details: human
# in vitro = details: African green monkey, uninfected Vero E6 cells
Molecule,CC50 (Vero E6 cells),CC50 (293T-ACE2 cells),CC50 at 2 days (in vitro)
Trans-clomiphene,5.58 µM,47.1 µM,
CCC(=C(c1ccc(OC)cc1)c1ccc(OC)cc1)c1cn(CC(O)CN(C)C)c2ccccc12 (stereo not drawn) [Bisphenylindol],,,5.58 µM
Cis-clomiphene,6.86 µM,6.87 µM,
CCN(CC)CCNc1cc(-c2cccs2)nc2ccccc12 [1d],,,6.86 µM
